Pooled drug test results. Numbers come from NIAID ChemDB, via PubChem.

Shared fields: growth or infection tests; organism: HIV-1; cell line: MT-4; read-out: EC50

ECn: concentration that inhibits the pathogen or its effect by n%.

SMILES,strain or isolate,changes,method,result
Cc1ccccc1N1CCN(CCCCN2C(=O)C3C4CCC(C(=O)C4)C3C2=O)CC1,,,MTT,>100 µM
CCc1c(Cc2cc(C)cc(C)c2)n(COCC#CC#CCO[Si](c2ccccc2)(c2ccccc2)C(C)(C)C)c(=O)[nH]c1=O,IIIB,EFV-resistant (K103R V179D P225H),MTT,>76 µM
O=C1CC2CCC1C1C(=O)N(CCCN3CCN(c4ccccc4)CC3)C(=O)C21,,,MTT,>100 µM
CCCn1nccc1-c1ccc(S(=O)(=O)N(CC(C)C)C[C@@H](O)[C@H](Cc2ccccc2)NC(=O)COc2c(C)cccc2C)cc1,LAI,,cytopathic effect / MTT,10 µM
Nc1ccn([C@H]2CC[C@@H](CO)O2)c(=O)n1,IIIB,,cytopathic effect / trypan blue,0.28 µM
CCc1c(Cc2cc(C)cc(C)c2)n(COC/C(=C/Sc2ccccc2)Sc2ccccc2)c(=O)[nH]c1=O,IIIB,Y181C,MTT,7 µM
CCCc1nc(-c2ccc(S(=O)(=O)N(CC(C)C)C[C@@H](O)[C@H](Cc3ccccc3)NC(=O)O[C@H]3CO[C@H]4OCC[C@H]43)cc2)co1,LAI,,cytopathic effect / MTT,0.004 µM
O=C1CC2CCC1C1C(=O)N(CC(O)CN3CCN(c4ccccc4)CC3)C(=O)C21,,,MTT,>100 µM
CCCCCC(CCSC)OC(=O)[C@@H](N)c1ccccc1-c1c[nH]c2ccccc12,NL4-3,,MTT,>25 µM
CC=CC(=O)c1c(CC)c(=O)[nH]c(=O)n1COCC,RT-Y181C N119,,cytopathic effect / MTT,>100 µM
COc1ccc(Nc2c([N+](=O)[O-])ncn2CC2=CC(=O)C(=O)CN2C)cc1,IIIB,,MTT,>250 µM
S=c1[nH]nc(Cc2ccccn2)n1-c1ccc(Cl)c(Cl)c1,IIIB,,cytopathic effect / MTT,>100 µM
COc1ccccc1N1CCN(CC(O)CN2C(=O)C3C4CCC(C(=O)C4)C3C2=O)CC1,,,MTT,>100 µM
CCSCCCCCCCCCCC(=O)OC[C@@H]1C=C[C@H](n2cc(C)c(=O)[nH]c2=O)O1,,,p24,0.03 µM
CCN(CC)CC(O)CN1C(=O)C2C3CCC(C(=O)C3)C2C1=O,,,MTT,>100 µM
Cc1ccc(Nc2nnc(Cc3ccccn3)s2)cc1Cl,IIIB,,cytopathic effect / MTT,>47 µM
CCC(CCSC)OC(=O)[C@@H](N)c1ccccc1-c1c[nH]c2ccccc12,NL4-3,,MTT,7.6 µM
O=C1CC2CCC1C1C(=O)N(CCCCN3CCN(c4ccc(F)cc4)CC3)C(=O)C21,,,MTT,>100 µM
CCc1c(Cc2ccccc2C)n(COCC#Cc2ccccc2)c(=O)[nH]c1=O,IIIB,EFV-resistant (K103R V179D P225H),MTT,>26 µM
CN1CC(=O)C(=O)C=C1Cn1cnc([N+](=O)[O-])c1Nc1cc(Cl)cc(Cl)c1,IIIB,,MTT,>7.3 µM
CC(=O)Nc1nc(-c2ccc(S(=O)(=O)N(CC(C)C)C[C@@H](O)[C@H](Cc3ccccc3)NC(=O)COc3c(C)cccc3C)cc2)cs1,LAI,,cytopathic effect / MTT,5.012 µM
CSCC[C@H](C)OC(=O)[C@@H](NC(=O)CSC(C)(C)C)c1ccccc1-c1c[nH]c2ccccc12,NL4-3,,MTT,>16 µM
CN1CC(=O)C(=O)C=C1Cn1cnc([N+](=O)[O-])c1Nc1ccc(C#N)cc1,IIIB,,MTT,>250 µM
CCOCn1c(C(=O)C=C(C)C)c(CC)c(=O)[nH]c1=O,IIIB WT,,cytopathic effect / MTT,3.9 µM
O=C1CC2CCC1C1C(=O)N(CCCN3CCN(c4ccc(F)cc4)CC3)C(=O)C21,,,MTT,>100 µM
CCOCn1c(Cc2ccccc2)c(C(C)C)c(=O)[nH]c1=O,N119 (Y181C),,cytopathic effect / MTT,>100 µM
CC(C)CN(C[C@@H](O)[C@H](Cc1ccccc1)NC(=O)O[C@H]1CO[C@H]2OCC[C@H]21)S(=O)(=O)c1ccc(-c2cnc(NC(=O)O[C@H]3CO[C@H]4OCC[C@H]43)[nH]2)cc1,LAI,,cytopathic effect / MTT,0.2 µM
Cc1ccc(Cl)c(-n2c(Cc3ccccn3)n[nH]c2=S)c1,IIIB,,cytopathic effect / MTT,>100 µM
CSCCC(OC(=O)[C@@H](N)c1ccccc1-c1c[nH]c2ccccc12)C(C)C,NL4-3,,MTT,25 µM
CC(C)CN(C[C@@H](O)[C@H](Cc1ccccc1)NC(=O)O[C@H]1CO[C@H]2OCC[C@H]21)S(=O)(=O)c1ccc(-c2coc(COCc3ccccc3)n2)cc1,LAI,,cytopathic effect / MTT,0.004 µM
CCc1c(Cc2cc(C)cc(C)c2)n(COCC#Cc2cccc(C=O)c2)c(=O)[nH]c1=O,IIIB,K103N + Y181C,MTT,6.4 µM
CCSCCCCCCCCCCCC(=O)OC[C@@H]1C=C[C@H](n2cc(C)c(=O)[nH]c2=O)O1,,,p24,0.09 µM
Nc1nc(=O)n([C@H]2C=C[C@@H](CO)O2)cc1Cl,IIIB,,cytopathic effect / trypan blue,22 µM
COc1ccccc1N1CCN(CCCCN2C(=O)C3C4CCC(C(=O)C4)C3C2=O)CC1,,,MTT,>100 µM

A second listing of 5 rows from above:

{"SMILES": "CSCCC(OC(=O)[C@@H](N)c1ccccc1-c1c[nH]c2ccccc12)C(C)C", "strain or isolate": "NL4-3", "method": "MTT", "result": "25 µM"}
{"SMILES": "CCCc1nc(-c2ccc(S(=O)(=O)N(CC(C)C)C[C@@H](O)[C@H](Cc3ccccc3)NC(=O)O[C@H]3CO[C@H]4OCC[C@H]43)cc2)co1", "strain or isolate": "LAI", "method": "cytopathic effect / MTT", "result": "0.004 µM"}
{"SMILES": "CCc1c(Cc2cc(C)cc(C)c2)n(COCC#CC#CCO[Si](c2ccccc2)(c2ccccc2)C(C)(C)C)c(=O)[nH]c1=O", "strain or isolate": "IIIB", "changes": "EFV-resistant (K103R V179D P225H)", "method": "MTT", "result": ">76 µM"}
{"SMILES": "COc1ccc(Nc2c([N+](=O)[O-])ncn2CC2=CC(=O)C(=O)CN2C)cc1", "strain or isolate": "IIIB", "method": "MTT", "result": ">250 µM"}
{"SMILES": "COc1ccccc1N1CCN(CCCCN2C(=O)C3C4CCC(C(=O)C4)C3C2=O)CC1", "method": "MTT", "result": ">100 µM"}

Neighbouring rows are from separate reports. Blank or dashed fields: not listed here.